Patent publication US12139534B2, “Methods and compositions for decreasing soluble immune receptor CD28” (BIOND BIOLOGICS LTD., priority 2018, dated 2024)

Tested on: human PBMCs

Structure (SMILES): CNC(=O)[C@@H](NC(=O)[C@H](CCCc1ccccc1)[C@H](C)N(O)C=O)C(C)(C)C [GI254023X]
- viability of the immune cells (MTT): no significant difference
